Measurements taken from PubChem BioAssay AID1986 (Sanford-Burnham Center for Chemical Genomics, 2009).
The list shows a part of the results, in another mix than the full data. Calls of active or inactive are those of the source. Rule as the data show it: active = inhibition mostly above about 52% (no sharp cut-off); inactive = mostly below about 76%.

Assay: cell-free HIV fusion peptide-binding blockers – biochemical, uHTS, fluorescence dequenching, primary screen (AID 1986)
Conditions: HIV Env-mediated cell-cell fusion, fluorescence reporter; at 20 µM; hits give high values

SMILES	inhibition
CCC1=CC2Cc3nc4ccc(Cl)cc4c(N)c3C(C1)C2 (stereo not drawn)	inactive: 0.5%
O=P1(Nc2ccccn2)COc2ccccc2OC1	inactive: 0.6%
CC(C)(C)C(=O)NC(Sc1ncccn1)C(Cl)(Cl)Cl (stereo not drawn)	inactive: 0.8%
Clc1n[nH]nc1-c1nn[nH][15n]1	inactive: -2.2%
O=[As](O)(c1ccccc1Br)c1ccccc1Br	inactive: -0.1%
CN(C(=O)Cc1ccc(Cl)c(Cl)c1)[C@@H]1CCCC[C@H]1N1CCCC1	inactive: -0.3%
CC(C)/C=N\N=C(\N)N[N+](=O)[O-]	inactive: 0.4%
Cc1ccc(C(=O)OC2CN3CCC2CC3)cc1 (stereo not drawn)	inactive: -1%
CC1CCC(C(C)C)C(OP(=O)(Nc2ccccn2)c2ccccc2)C1 (stereo not drawn)	inactive: -0.6%
Cc1nn(-c2ccccc2)c2c1P(=O)(N1CCOCC1)N(C)C(c1ccccc1)=N2 (stereo not drawn)	inactive: 2.9%
O=C(/C=C/c1ccccc1)OC1CN2CCC1CC2 (stereo not drawn)	inactive: -0.5%
CN(C)C1(CNC(=O)c2ccc(S(C)(=O)=O)cc2)CCCCC1	inactive: -0.6%
O=P1(Nc2ncccn2)COc2ccccc2OC1	inactive: 1.8%
O=[As](O)(c1cccs1)c1cccs1	inactive: -0.9%
Cc1ccc(OCC(=O)OC2CN3CCC2CC3)cc1 (stereo not drawn)	inactive: 2.4%
O=P1(Nc2ccc(Br)cn2)COc2ccccc2OC1	inactive: 1.2%
Nc1cccc([As](=O)(O)c2ccccc2)c1	inactive: -0.6%
CS(=O)(=O)c1cc([N+](=O)[O-])c2no[n+]([O-])c2c1	inactive: 6%
O=P(Nc1nccs1)(Oc1ccccc1)Oc1ccccc1	inactive: -0.1%

SMILES	inhibition
O=P(Nc1nccs1)(c1ccccc1)c1nc2ccccc2s1 (stereo not drawn)	inactive: -1.1%
CCOP1(=S)c2c(C)nn(CCC#N)c2N=C(c2ccccc2F)N1C (stereo not drawn)	inactive: 2.5%
O=C(O)COc1ccc([As](=O)(O)O)cc1[N+](=O)[O-]	inactive: 0.9%
Nc1ccccc1[As](=O)(O)c1ccccc1	inactive: -1.2%
NC(=O)Nc1ccc([As](=O)(O)O)cc1	inactive: 0.7%
O=[N+]([O-])c1ccc2c(c1)nnn2O	inactive: -0.2%
CCOP1(=S)c2c(C)nn(CCC#N)c2N=C(c2ccc(F)cc2)N1C (stereo not drawn)	inactive: 0.8%
CN(C(=O)Cc1ccccc1)[C@@H]1CC[C@]2(CCCO2)C[C@H]1N1CCCC1	inactive: 2.5%
CS(=O)(=O)c1ccc(Cl)c(NC(=O)COC(=O)C(O)(c2ccccc2)c2ccccc2)c1	inactive: 0.6%
O=[As](O)(O)c1cccnc1	inactive: -1.4%
COc1cc(C(=O)NCC2(N3CCOCC3)CCCCC2)cc(Cl)c1OC(C)C	inactive: -1.1%
O=C(OC1CN2CCC1CC2)c1ccc(Cl)cc1 (stereo not drawn)	inactive: 0.7%
Cc1cccc(OCC(=O)OC2CN3CCC2CC3)c1 (stereo not drawn)	inactive: 1.6%
O=[As](O)(c1cccc(O)c1)c1cccc(O)c1	inactive: -1.7%
CCCOP(=S)(Nc1nc(N)cc(=O)[nH]1)OCCC	inactive: 1.9%
Nc1cccc2c([As](=O)(O)O)cccc12	inactive: 148%
Cc1ccc(NCCc2c([N+](=O)[O-])cc([N+](=O)[O-])cc2[N+](=O)[O-])cc1	inactive: 35.2%
CCOP(=O)(Nc1cccc2ccccc12)OCC	inactive: -1.6%
COc1cc(C2NCCC3(OCCO3)C2(C)C)cc(OC)c1OC (stereo not drawn)	inactive: 3.5%
